Holding throughout (test): Selectivity index (toxicity/potency)
Data set [1] deals with Gram-negative bacteria (avg). It is filed as cell-based. The note with it: ratio of average toxicity (HEK293 and HeLa) to average potency. The source says:
(§1) TABLE 3 Selectivity indices of bolaamphiphiles | column: Selectivity of^a: / 12-bis-THA Cl2; Selectivity of^a: / Dequalinium; Selectivity of^a: / Quino-bola; Selectivity of^a: / Penta-bola; Selectivity of^a: / Hepta-bola; Selectivity of^a: / Octa-bola; Selectivity of^a: / Octa-C10; Selectivity of^a: / Octa-C8; Selectivity of^a: / Octa-C6

A further data set has as its system M. tuberculosis Bleupan. It is filed as cell-based, Mycobacterium tuberculosis. Conditions: ratio of average toxicity (HEK293 and HeLa) to potency. The source says: TABLE 3 Selectivity indices of bolaamphiphiles | column: Selectivity of^a: / 12-bis-THA Cl2; Selectivity of^a: / Dequalinium; Selectivity of^a: / Penta-bola; Selectivity of^a: / Octa-bola; Selectivity of^a: / Octa-C8; Selectivity of^a: / Octa-C6

For a further data set, the system named is Fungi (avg). It is filed as cell-based, Candida spp. The note with it: ratio of average toxicity (HEK293 and HeLa) to average potency.
From the text: as §1

Data set [2] has as its system Gram-positive bacteria (avg). It is filed as cell-based. The note with it: ratio of average toxicity (HEK293 and HeLa) to average potency.

The record followed here is publication PMC9942557, “Bolaamphiphile Analogues of 12-bis-THA Cl2 Are Potent Antimicrobial Therapeutics with Distinct Mechanisms of Action against Bacterial, Mycobacterial, and Fungal Pathogens” (mSphere, 2022).

SMILES strings stand for the structures. A value given as a limit tells only on which side of the number the result lay.

Regarding `Nc1c2c([n+](CCCCCCCCCCCC[n+]3c4c(c(N)c5ccccc53)CCCC4)c3ccccc13)CCCC2` [12-bis-THA Cl2, 12,12′-(Dodecane-1,12-diyl)-bis-(9-amino-1,2,3,4-tetrahydroacridinium) chloride], the Selectivity index in data set [1] was 0.48; in the data set with M. tuberculosis Bleupan it was 7.24; with Fungi (avg), 15.8; in data set [2] it was 19.5.
`Nc1c2c([n+](CCCCCCCCCCCC[n+]3c4c(c(N)c5ccccc53)CCC4)c3ccccc13)CCC2` [Penta-bola]: the Selectivity index was found to be 0.35 in data set [1], 45.8 in the data set on M. tuberculosis Bleupan, 22.3 in the data set with Fungi (avg) and 10.9 in data set [2].
For `Nc1c2c([n+](CCCCCCCC[n+]3c4c(c(N)c5ccccc53)CCCCCC4)c3ccccc13)CCCCCC2` [Octa-C8] the same measures were 0.90, 41.0, 8.48 and 18.1.
Turning to `Nc1c2c([n+](CCCCCCCCCC[n+]3c4c(c(N)c5ccccc53)CCCCCC4)c3ccccc13)CCCCCC2` [Octa-C10], the Selectivity index in data set [1] is listed as 1.07; in the data set on Fungi (avg) it was 11.6; in data set [2] it was 23.9.
On to `Nc1c2c([n+](CCCCCC[n+]3c4c(c(N)c5ccccc53)CCCCCC4)c3ccccc13)CCCCCC2` [Octa-C6], for which the Selectivity index was less than 1.63 in data set [1], 113 in the data set on M. tuberculosis Bleupan, less than 6.52 with Fungi (avg) and 2.94 in data set [2].
As to `Nc1c2c([n+](CCCCCCCCCCCC[n+]3c4c(c(N)c5ccccc53)CCCCC4)c3ccccc13)CCCCC2` [Hepta-bola], the figures for the Selectivity index (in data set [1]; in the data set on Fungi (avg); in data set [2]) were 0.44, 8.00 and 10.4, respectively.
